# HIV-1 5' UTR: DMS reactivities by position

Data from the supplement of Ye et al. 2022, doi:10.1038/s41594-022-00746-2.

The 5' region of HIV-1 NL4-3 RNA (positions 1-437):
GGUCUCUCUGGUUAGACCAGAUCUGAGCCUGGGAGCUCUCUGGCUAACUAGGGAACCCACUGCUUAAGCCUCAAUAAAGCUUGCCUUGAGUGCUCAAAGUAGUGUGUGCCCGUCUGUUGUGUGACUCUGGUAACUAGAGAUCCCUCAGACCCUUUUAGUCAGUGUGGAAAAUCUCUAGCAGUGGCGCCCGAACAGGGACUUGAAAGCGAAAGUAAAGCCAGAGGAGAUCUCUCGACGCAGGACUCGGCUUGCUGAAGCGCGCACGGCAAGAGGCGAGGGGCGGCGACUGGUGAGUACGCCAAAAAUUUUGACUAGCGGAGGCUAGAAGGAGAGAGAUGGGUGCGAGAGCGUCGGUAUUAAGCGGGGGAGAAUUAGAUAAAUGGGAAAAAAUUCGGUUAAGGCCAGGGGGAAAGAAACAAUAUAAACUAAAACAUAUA

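Randomly mutated transcripts starting with one, two or three G (1G, 2G, 3G), capped or uncapped, were folded for 30 min at 37 °C. High salt was 300 mM KCl and 5 mM MgCl2, low salt 40 mM KCl and 0.1 mM MgCl2; monomer and dimer were parted on a native gel. Gel slices were treated with 170 mM dimethyl sulfate for 15 min at 37 °C and read by mutational profiling against an ethanol control.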

Scale: normalised reactivity, A and C only; low values point to paired or protected bases, higher values to unpaired ones.
One numbering serves 1G, 2G and 3G.
A position is written with its base.

{"position": "C38", "domain": "TAR", "3G capped low-salt dimer": 0.03, "2G uncapped low-salt dimer": 0.04, "2G uncapped high-salt monomer": 0.03}
{"position": "C60", "domain": "PolyA", "3G capped low-salt dimer": 0.58, "2G uncapped low-salt dimer": 0.19, "2G uncapped high-salt monomer": 0.36}
{"position": "C70", "domain": "PolyA", "3G capped low-salt dimer": 0.07, "2G uncapped low-salt dimer": 0.04, "2G uncapped high-salt monomer": 0.03}
{"position": "A101", "domain": "PolyA", "3G capped low-salt dimer": 0.30, "2G uncapped low-salt dimer": 0.15, "2G uncapped high-salt monomer": 0.19}
{"position": "C144", "domain": "PBS", "3G capped low-salt dimer": 0.03, "2G uncapped low-salt dimer": 0.04, "2G uncapped high-salt monomer": 0.03}
{"position": "A203", "domain": "PBS", "3G capped low-salt dimer": 0.47, "2G uncapped low-salt dimer": 0.50, "2G uncapped high-salt monomer": 0.53}
{"position": "A209", "domain": "PBS", "3G capped low-salt dimer": 0.38, "2G uncapped low-salt dimer": 0.40, "2G uncapped high-salt monomer": 0.49}
{"position": "A216", "domain": "PBS", "3G capped low-salt dimer": 0.71, "2G uncapped low-salt dimer": 0.70, "2G uncapped high-salt monomer": 0.60}
{"position": "A225", "domain": "none", "3G capped low-salt dimer": 0.79, "2G uncapped low-salt dimer": 0.85, "2G uncapped high-salt monomer": 0.84}
{"position": "A227", "domain": "CU", "3G capped low-salt dimer": 0.25, "2G uncapped low-salt dimer": 0.22, "2G uncapped high-salt monomer": 0.28}
{"position": "C258", "domain": "SL1", "3G capped low-salt dimer": 0.24, "2G uncapped low-salt dimer": 0.26, "2G uncapped high-salt monomer": 0.34}
{"position": "C264", "domain": "SL1", "3G capped low-salt dimer": 0.21, "2G uncapped low-salt dimer": 0.21, "2G uncapped high-salt monomer": 0.42}
{"position": "C274", "domain": "SL1", "3G capped low-salt dimer": 0.26, "2G uncapped low-salt dimer": 0.26, "2G uncapped high-salt monomer": 0.60}
{"position": "C281", "domain": "none", "3G capped low-salt dimer": 0.37, "2G uncapped low-salt dimer": 0.46, "2G uncapped high-salt monomer": 0.37}
{"position": "C284", "domain": "SL2", "3G capped low-salt dimer": 0.15, "2G uncapped low-salt dimer": 0.17, "2G uncapped high-salt monomer": 0.21}
{"position": "C299", "domain": "SL2", "3G capped low-salt dimer": 0.06, "2G uncapped low-salt dimer": 0.06, "2G uncapped high-salt monomer": 0.07}
{"position": "A301", "domain": "none", "3G capped low-salt dimer": 0.25, "2G uncapped low-salt dimer": 0.27, "2G uncapped high-salt monomer": 0.23}
{"position": "C312", "domain": "SL3", "3G capped low-salt dimer": 0.08, "2G uncapped low-salt dimer": 0.08, "2G uncapped high-salt monomer": 0.10}
{"position": "A319", "domain": "SL3", "3G capped low-salt dimer": 0.84, "2G uncapped low-salt dimer": 0.94, "2G uncapped high-salt monomer": 0.95}
{"position": "A371", "domain": "none", "3G capped low-salt dimer": 0.94, "2G uncapped low-salt dimer": 0.97, "2G uncapped high-salt monomer": 0.91}
{"position": "A376", "domain": "none", "3G capped low-salt dimer": 0.71, "2G uncapped low-salt dimer": 0.80, "2G uncapped high-salt monomer": 0.78}
{"position": "A415", "domain": "none", "3G capped low-salt dimer": 0.22, "2G uncapped low-salt dimer": 0.25, "2G uncapped high-salt monomer": 0.25}